Results of unrelated studies side by side (data: NIAID ChemDB).

All rows: growth or infection tests; agent: Candida albicans; endpoint: MIC

An empty or dashed field is not shown. Neighbouring rows are from separate reports.

structure	strain or isolate	read by	result
CCCCCCCCC(=O)[C@H]1O[C@H]1C(=O)NCc1ccccc1	SC5314	-	12.5 µg/mL
O=S(=O)(NC(=S)Nc1ccccc1)c1ccc(N2N=C(c3ccc(Cl)cc3)CC2c2ccccc2)cc1	ATCC 2091	-	50 µg/mL
CCCCCCCC[N+](C)(C)COC1CCCCCCCCCCC1	ATCC 10231	-	25.6 µM
CCCCCOc1ccc(-c2ccc(-c3ccc(C(=O)N[C@H]4CCCNC(=O)C5C[C@H](NCC(=O)O)CN5C(=O)C(C(C)O)NC(=O)C(CCc5ccc(O)cc5)NC(=O)C5C[C@@H](O)CN5C(=O)C(C(C)O)NC4=O)cc3)cc2)cc1	ATCC 62376	-	0.78 µg/mL
NC(=NC1CCCC1)c1ccc(-c2ccc(-c3ccc(C(N)=NC4CCCC4)cc3)o2)cc1	Isolate 2370 fluconazole-resistant	-	12.5 µg/mL
O=[N+]([O-])c1ccccc1S(=O)(=O)Nc1ccc2c(c1)Sc1ccccc1O2	C316	-	3 µg/mL
Nc1[nH]c(=O)ncc1F	2915	-	0.5 µg/mL
C[C@@H](n1cnc2cc(N(C)C)c(F)cc2c1=O)[C@](O)(Cn1cncn1)c1ccc(F)cc1F	76 strains	-	40 µg/mL
Nc1ccc(S(=O)(=O)Nc2ccc3c(c2)Sc2ccccc2O3)cc1	C316	-	16 µg/mL
C[C@H]1[C@H](O)[C@@H](C)/C=C/C=C/C=C/C=C/C=C/C=C/C=C/[C@H](O[C@@H]2O[C@H](C)[C@@H](O)[C@H](N)[C@@H]2O)C[C@@H]2O[C@](O)(C[C@@H](O)C[C@@H](O)CC[C@H](O)[C@@H](O)C[C@@H](O)CC(=O)O[C@H]1C)C[C@H](O)[C@H]2C(=O)O	AD 83/004 (azole-resistant)	-	≤0.03 µg/mL
O=C(O)c1ccccc1S(=O)(=O)Nc1ccc2c(c1)Sc1ccccc1O2	C316	-	31 µg/mL
COC1CC2CCC(C)C(O)(O2)C(=O)C(=O)N2CCCC2C(=O)OC(C(C)CC2CCC(O)C(OC)C2)CC(=O)C(C)/C=C(\C)C(O)C(OC)C(=O)C(C)CC(C)/C=C/C=C/C=C/1C	ATCC11651	-	1 µg/mL
C[C@@H](n1cnc2ccccc2c1=O)[C@](O)(Cn1cncn1)c1ccc(F)cc1F	406 strains	-	≤0.03 µg/mL
CCCCCCCCCCCC[N+](C)(C)COC(CC)CCCCC	ATCC 10231	-	12.8 µM
C[C@H]1[C@H](O)[C@@H](C)/C=C/C=C/C=C/C=C/C=C/C=C/C=C/[C@H](O[C@@H]2O[C@H](C)[C@@H](O)[C@H](N)[C@@H]2O)C[C@@H]2O[C@](O)(C[C@@H](O)C[C@@H](O)CC[C@H](O)[C@@H](O)C[C@@H](O)CC(=O)O[C@H]1C)C[C@H](O)[C@H]2C(=O)O	R89-335	-	0.25 µg/mL
CCCCCCCCOc1ccc(C(=O)NC2C[C@@H](O)[C@@H](O)NC(=O)C3[C@@H](O)[C@@H](C)CN3C(=O)C(C(C)O)NC(=O)C([C@H](O)[C@@H](O)c3ccc(O)cc3)NC(=O)C3C[C@@H](O)CN3C(=O)C(C(C)O)NC2=O)cc1	MY1783	-	0.5 µg/mL
C[C@@H](n1cnc2ccc(F)cc2c1=O)[C@](O)(Cn1cncn1)c1ccc(F)cc1F	60 strains	-	0.07 µg/mL
Cc1ccc(S(=O)(=O)NC(=O)Nc2ccc3c(c2)Sc2ccccc2O3)cc1	C316	-	12 µg/mL
Cc1ccc(C(c2ccn(-c3ccc(Cl)cc3)c2)n2ccnc2)cc1	-	-	1.1 µg/mL
C[C@@H](N1CNc2cc(Cl)ccc2C1=O)[C@](O)(Cn1cncn1)c1ccc(F)cc1F	406 strains	-	≤0.03 µg/mL
CCCCCOc1ccc(-c2ccc(-c3ccc(C(=O)N[C@H]4CCCNC(=O)[C@@H]5C[C@H](NC(=O)CCC(=O)O)CN5C(=O)[C@H]([C@@H](C)O)NC(=O)[C@H](CCc5ccc(O)cc5)NC(=O)[C@@H]5C[C@@H](O)CN5C(=O)[C@H]([C@@H](C)O)NC4=O)cc3)cc2)cc1	ATCC 62376	-	0.78 µg/mL
CN[C@@H]1[C@H](O[C@@H]2O[C@H](CO)[C@@H](O)[C@H](S(=O)(=O)O)[C@H]2O)[C@@H](O)[C@H](O[C@H]2c3cc(C)c(C(=O)N[C@H](CO)C(=O)O)c(O)c3-c3c(cc4c(c3O)C(=O)c3cc(OC)cc(O)c3C4=O)[C@@H]2O)O[C@@H]1C	A9540	-	12.5 µg/mL
COc1ccc(C(Cc2ccc([N+](=O)[O-])cc2)n2ccnc2)cc1	-	-	17 µg/mL
CCCCCOc1ccc(-c2ccc(-c3ccc(C(=O)N[C@H]4CCCNC(=O)C5CCN5C(=O)C(C(C)O)NC(=O)C(CCc5ccc(O)cc5)NC(=O)C5C[C@@H](O)CN5C(=O)C(C(C)O)NC4=O)cc3)cc2)cc1	ATCC CCH442	-	0.78 µg/mL
CC1(C)CC(=O)c2cc(C3=CC(c4ccc(Br)cc4)=CC3c3nnc4c(n3)Nc3ccccc3C4)[nH]c2C1	ATCC 2091	-	200 µg/mL
CC(C)c1nc2cc(Cl)ccc2[nH]c1=O	-	-	>200 µM
COc1cncc(/C(N)=N/N=C(\N)c2cncc(OC)n2)n1	-	broth dilution	>256 µg/mL
CCCCCCCCOc1ccc(-c2ccc(-c3ccc(CN[C@H]4CCCNC(=O)C5C[C@H](N)CN5C(=O)C(C(C)O)NC(=O)C(CCc5ccc(O)cc5)NC(=O)C5C[C@@H](O)CN5C(=O)C(C(C)O)NC4=O)cc3)cc2)cc1	ATCC CCH442	-	0.39 µg/mL
COc1cncc(-c2nc(C)[n+](-c3ccccc3)[nH]2)n1	-	broth dilution	>256 µg/mL
CCCCCCCCCCCCCC[C@@H](N)C(=O)N[C@H](C(=O)O)C1O[C@@H](n2ccc(=O)[nH]c2=O)[C@H](O)[C@@H]1O	124 (nikkomycin-S)	-	>320 µg/mL
CCCCCCCCCCCC[N+](C)(C)COCCCCCCC	ATCC 10231	-	13.2 µM
CCCCCOc1ccc(-c2ccc(-c3ccc(C(=O)N[C@H]4CCCNC(=O)C5C[C@H](NC(=O)NCCN(C)C)CN5C(=O)C(C(C)O)NC(=O)C(CCc5ccc(O)cc5)NC(=O)C5C[C@@H](O)CN5C(=O)C(C(C)O)NC4=O)cc3)cc2)cc1	ATCC 10231	-	0.78 µg/mL
Nc1ccc2c(c1)Sc1ccccc1O2	C316	-	>125 µg/mL
CCOC(=O)Cc1nnc2nnc3c(n12)Nc1ccccc1C3	ATCC 2091	-	200 µg/mL
C[C@@H](n1cnc2cccc(Cl)c2c1=O)[C@](O)(Cn1cncn1)c1ccc(F)cc1F	60 strains	-	0.15 µg/mL
O=S(=O)(Nc1ccc2c(c1)Sc1ccccc1O2)c1ccc(F)cc1	C316	-	8 µg/mL
CCCCCOc1ccc(-c2ccc(-c3ccc(C(=O)N[C@H]4CCCNC(=O)C5C[C@H](N)CN5C(=O)C(CN)NC(=O)C(CCc5ccc(O)cc5)NC(=O)C5C[C@@H](O)CN5C(=O)C(C(C)O)NC4=O)cc3)cc2)cc1	ATCC 62376	-	1.56 µg/mL
CCC(C)n1ncn(-c2ccc(N3CCN(c4ccc(OC[C@H]5CO[C@](Cn6cncn6)(c6ccc(Cl)cc6Cl)O5)cc4)CC3)cc2)c1=O	Isolate CA-5	-	>8 µg/mL
CCCCCCCCC(O)[C@H]1O[C@H]1C(=O)NC1CC1	F2 sensitive	-	6.25 µg/mL
O=c1[nH]c2c(Cl)c(Cl)ccc2nc1CBr	-	-	>200 µM
Nc1ccc(-c2c[nH]cc2C(c2ccc(Cl)cc2Cl)n2ccnc2)cc1	-	-	28 µg/mL
COc1cncc(-c2n[nH]c(-c3cncc(OC)n3)n2)n1	-	broth dilution	>256 µg/mL
CCCCC/C=C/CCC(=O)[C@H]1O[C@H]1C(=O)NCc1ccccc1	SC5314	-	12.5 µg/mL
CC(C)c1nc2cc(C(F)(F)F)cc(N)c2[nH]c1=O	-	-	>200 µM
NS(=O)(=O)c1ccc(C2C=C(c3ccc(Cl)cc3)C(Br)C2c2ccccc2)cc1	ATCC 2091	-	50 µg/mL
COC1CC2CCC(C)C(O)(O2)C(=O)C(=O)N2CCCCC2C(=O)OC(C(C)CC2CCC(O)C(OC)C2)CC(=O)C(C)/C=C(\C)C(O)CC(=O)C(C)CC(C)/C=C/C=C/C=C/1C	ATCC11651	-	0.25 µg/mL
C[C@@H](n1cnc2cc(F)c(F)cc2c1=O)[C@](O)(Cn1cncn1)c1ccc(F)cc1F	406 strains	-	0.15 µg/mL
CC[C@@H]([C@H](C)O)n1ncn(-c2ccc(N3CCN(c4ccc(OC[C@@H]5CO[C@@](Cn6cncn6)(c6ccc(F)cc6F)C5)cc4)CC3)cc2)c1=O	Isolate CA-2	-	>4 µg/mL
Cn1cc(-c2ccc(Cl)cc2Cl)c(C(c2ccc(Cl)cc2Cl)n2ccnc2)c1	-	-	2.9 µg/mL
C=CCNC(=S)Nc1cccc(S(=O)(=O)Nc2ccc3c(c2)Sc2ccccc2O3)c1	C316	-	1.4 µg/mL
O=S1N=C(c2cnccn2)NN1c1ccccc1	-	broth dilution	32 µg/mL
Nc1cc(C(F)(F)F)cc2[nH]c(=O)c(C(F)(F)F)nc12	-	-	>200 µM
CCCCCCCCCCCCCCCCCC(=O)NC1CC(O)C(O)NC(=O)C2C(O)C(C)CN2C(=O)C(C(C)O)NC(=O)C(C(O)C(O)c2ccc(O)cc2)NC(=O)C2CC(O)CN2C(=O)C(C(C)O)NC1=O	MY1028	-	0.25 µg/mL
COc1ccc2[nH]c(=O)c(C(F)(F)F)nc2c1	-	-	>200 µM
CCCCCCCCCCCC[N+](C)(C)CSCCCCCC	ATCC 10231	-	26.3 µM

The first 6 rows once more:

structure,strain or isolate,read by,result
CCCCCCCCC(=O)[C@H]1O[C@H]1C(=O)NCc1ccccc1,SC5314,-,12.5 µg/mL
O=S(=O)(NC(=S)Nc1ccccc1)c1ccc(N2N=C(c3ccc(Cl)cc3)CC2c2ccccc2)cc1,ATCC 2091,-,50 µg/mL
CCCCCCCC[N+](C)(C)COC1CCCCCCCCCCC1,ATCC 10231,-,25.6 µM
CCCCCOc1ccc(-c2ccc(-c3ccc(C(=O)N[C@H]4CCCNC(=O)C5C[C@H](NCC(=O)O)CN5C(=O)C(C(C)O)NC(=O)C(CCc5ccc(O)cc5)NC(=O)C5C[C@@H](O)CN5C(=O)C(C(C)O)NC4=O)cc3)cc2)cc1,ATCC 62376,-,0.78 µg/mL
NC(=NC1CCCC1)c1ccc(-c2ccc(-c3ccc(C(N)=NC4CCCC4)cc3)o2)cc1,Isolate 2370 fluconazole-resistant,-,12.5 µg/mL
O=[N+]([O-])c1ccccc1S(=O)(=O)Nc1ccc2c(c1)Sc1ccccc1O2,C316,-,3 µg/mL